# Data from the supplement of paper PMC3842684.
# Only a part is listed here, and it is no random draw.
# How the values were obtained:
# [1] = system: P. falciparum NF54-pfs16-GFP early (I-III) stage gametocytes; test: relative % inhibition of viable gametocyte number; higher = more gametocytocidal; conditions: stage: early (I-III) gametocyte, incubation 72 h
# Summary of the method: (§1)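 Relative inhibition was normalised to in-plate vehicle and positive-control wells, with viable gametocytes defined on confocal images as elongated GFP objects whose MitoTracker Red signal exceeded a cut-off. NF54 pfs16-GFP gametocytes, magnet-isolated at early (I/IIa, day 2) or late (day 8) stage, were plated at 10% parasitaemia, 0.1% haematocrit with compound at 5 or 0.5 µM. Plates were incubated 72 h at 37°C, 5% CO2, 5% O2, then stained overnight.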
# [2] = system: P. falciparum NF54-pfs16-GFP late (IV-V) stage gametocytes; test: as above; conditions: stage: late (IV-V) gametocyte, incubation 72 h
# Summary of the method: as §1
SMILES,relative % inhibition ([1]; 0.5 µM) [%],relative % inhibition ([1]; 5 µM) [%],relative % inhibition ([2]; 0.5 µM) [%],relative % inhibition ([2]; 5 µM) [%]
c1ccc2c(NCCCCCCNc3c4c(nc5ccccc35)CCCC4)c3c(nc2c1)CCCC3,40.6,65.9,29.6,86.9
CCC1(C)CC(CCNCc2ccccc2O)(c2ccc(C)cc2)CCO1 (stereo not drawn),81.7,87.3,46.6,66.1
